The text below walks through data of patent US20120121633A1, “HIV CD4 BINDING SITE BASED COVALENT IMMUNOGEN COMPOSITIONS” (priority 2010, published 2012).

In the assay the target is soluble CD4 (sCD4) (Homo sapiens, UniProt P01730). The experiment in a line: sCD4 binding to immobilized electrophilic 421-433 CD4BS mimetics (ELISA). As to conditions: immobilized KLH-E-416-433; from FIG. 10A data; read-out: apparent dissociation constant for specific binding to soluble CD4 (sCD4). The method, then: FIG. 10. […] KLH-E-VIP, an irrelevant electrophilic peptide described in ref 3.
FIG. 29. […] I19-21 IgA from patients with HIV infection for 19-21 years, 100 μg/mL. […] MAb YZ23 raised by immunization with E-120, 6 μg/mL.
E-421-433. […] KLH-E-VIP, an irrelevant electrophilic peptide described in ref 122. […] I19-21 IgA from patients with HIV infection for 19-21 years, 100 μg/mL.
(ELISA stands for enzyme-linked immunosorbent assay.)

Consider “KLH-E-416-433: E-416-433 peptide with phosphonate groups at Lys side chains, conjugated via N-terminal Cys to keyhole limpet hemocyanin (CLPSRIKQIINMWQEVGKA; left off: large carriers; small tags and cut ends)”, for which the Kd was determined as 182 nM.
